Experiments:
influenza virus = system: influenza virus; design: species or system Kunming mice; details: mouse, in vivo
parainfluenza virus = format: in vivo, Kunming mice; details: mice infected with parainfluenza virus, treated 5 days, different concentrations, P<0.01

SMILES: COc1cc(C2OCC3C(c4ccc(OC5OC(C(=O)O)C(O)C(O)C5O)c(OC)c4)OCC23)ccc1O (centres unmarked) [Compound I]
- lung tissue virus hemagglutination titers compared with the infection model group (in words) (influenza virus): slightly decreased
- lung tissue virus hemagglutination titers compared with the infection model group (in words) (parainfluenza virus): slightly decreased

From US10407455B2, “Phillygenin glucuronic acid derivative as well as preparation method and application thereof” (priority 2015, dated 2019)
